Compound potency records, mixed from different reports. Data source: NIAID ChemDB in PubChem.

All rows: tests in culture; organism: HIV-1; read-out: inhibition

Percent inhibition refers to the dose given; in toxicity tests it is the harm to the cells. Blank or dashed fields: not listed here. Neighbouring rows are from separate reports.

smiles | read by | mutations | strain or isolate | setting | tested at | cells | value
CC1(C)CC[C@]2(C(=O)NCCCCCC(=O)O)CC[C@]3(C)C(=CC[C@@H]4[C@@]5(C)C[C@@H](O)[C@H](O)C(C)(C)[C@@H]5CC[C@]43C)[C@@H]2C1 | p24 / ELISA | - | pNL4-3 | - | 25 µM | MT-2 | 20.7%
COC(=O)c1c(C)[nH]c(Cc2ccccc2)c1C(=O)OC | p24 / ELISA | - | IIIB | - | 10 µM | PBL | 0%
Cc1ccc(-c2ccc3c(c2)C=C(C(=O)Nc2ccc(C[N+](C)(C)C4CCOCC4)cc2)CCC3)cc1 | p24 | - | COT1 CLADE C | - | 1 µM | PBMC | 100%
Nc1ccn([C@@H]2O[C@H](CO)C=C2F)c(=O)n1 | cytopathic effect / MTT | - | xxBRU | - | 8 µM | - | 90%
CCCCCCCCCCCCCCCC(=O)OCC(COC(=O)CCC(=O)OC1CC(COP(=O)(O)OC2CC(COP(=O)(O)OC3CC(CO)OC3n3cnc4c(N)ncnc43)OC2n2cnc3c(N)ncnc32)OC1n1cnc2c(N)ncnc21)OC(=O)CCCCCCCCCCCCCCC | syncytia | - | IIIB | - | 300 µM | SupT1 + Sup-T1 | 96.7%
O=C1CC(C#CC2CC2)(C(F)(F)F)c2cc(Cl)ccc2N1 | - | RT-L100I | - | - | 0.992 µM | - | 90%
CC(C)CN(C[C@@H](O)[C@H](Cc1ccccc1)NC(=O)O[C@H]1CO[C@H]2OCC[C@H]21)S(=O)(=O)c1ccc2nc(NC3CCN(C4CCCC4)CC3)sc2c1 | reporter gene | - | LAI | - | 94.7 nM | MT-4 | 90%
CCOC(=O)c1cc2n(c1-c1ccc(F)cc1)CCC2 | p24 / ELISA | - | IIIB | - | 10 µM | PBL | 86%
N=C1Sc2ccccc2C2=NCCCN12 | β-galactosidase | - | 92HT599 | - | 6.31 µM | TZM-bl | 90%
Cc1cc2ccccc2c(-c2ccc3c4c(ccnc24)CCO3)c1[C@H](OC(C)(C)C)C(=O)O | p24 | - | HXB2 | - | 0.016 µM | PBMC | 95%
Cc1cn([C@H]2C[C@H](n3nncc3-c3ccc4[nH]ccc4c3)[C@@H](CO)O2)c(=O)[nH]c1=O | cytopathic effect / MTT / absorbance | - | IIIB | - | 10 µM | CEM-SS | 2%
CC(C)[C@H](NC(=O)[C@H](Cc1ccccc1)C[C@H](O)[C@H](Cc1ccccc1)NC(=O)OC(C)(C)C)C(=O)N[C@@H](Cc1ccccc1)C(=O)N1CCOCC1 | RT activity | - | AMS316-23 | - | 1 µM | PBL | 89%
CCCCCCCCCCCCCCCC(=O)NC1C(COP(=O)(O)OC2CC(COP(=O)(O)OC3CC(CO)OC3n3cnc4c(N)ncnc43)OC2n2cnc3c(N)ncnc32)OC(n2cnc3c(N)ncnc32)C1O | syncytia | - | - | - | 100 µM | - | 91%
Cc1ccc(C)c(NS(=O)(=O)c2cc(C(=O)NCc3ccccn3)ccc2Cl)c1 | p24 | AZT multi-resistant | Clinical isolate | - | 0.8 µM | C8166 | 90%
CC1(C)CC[C@]2(C(=O)O)CC[C@]3(C)C(=CC[C@@H]4[C@@]5(C)C[C@@H](O)[C@H](O)C(C)(C)[C@@H]5CC[C@]43C)[C@@H]2C1 | p24 / ELISA | - | pNL4-3 | - | 25 µM | MT-2 | 93.3%
COC(=O)N1C[C@H](n2cc(C)c(=O)[nH]c2=O)C[C@@H]1CO | - | - | - | - | 100 µM | - | 0%
CO[C@H]1C[C@@H]2CC[C@@H](C)[C@@](O)(O2)C(=O)C(=O)N2CCCC[C@H]2C(=O)O[C@H]([C@H](C)C[C@@H]2CC[C@@H](O)[C@H](OC)C2)CC(=O)[C@H](C)/C=C(\C)[C@@H](O)[C@@H](OC)C(=O)[C@H](C)C[C@H](C)/C=C/C=C/C=C/1C | - | - | BaL | - | 0.1 µM | TZM-bl | 67%
CC(C)c1cnc(C2C=C(c3ccc([N+](=O)[O-])cc3)N=C(N)S2)cn1 | p24 / ELISA / antigen | - | NL4-3 | - | 10 µg/mL | TZM-bl | 94%
CC1(C)[C@@H](O[C@H]2O[C@H](C(=O)O)[C@@H](O)[C@H](O)[C@H]2O[C@@H]2O[C@H](C(=O)O)[C@@H](O)[C@H](O)[C@H]2O)CC[C@]2(C)[C@H]3C(=O)C=C4[C@@H]5C[C@@](C)(C(=O)O)CC[C@]5(C)CC[C@@]4(C)[C@]3(C)CC[C@@H]12 | cytopathic effect / MTT | - | IIIB | - | 620 µM | MT-4 | 81.9%
CC(C)c1cnc(C2C=C(c3ccccc3O)N=C(N)S2)cn1 | p24 / ELISA / antigen | - | NL4-3 | - | 10 µg/mL | TZM-bl | 53%
Cc1cn([C@@H]2C[C@H](CO)N(C#N)C2)c(=O)[nH]c1=O | - | - | - | - | 100 µM | - | 0%
CC(C)c1cnc(C2C=C(c3ccc(Cl)cc3)N=C(N)S2)cn1 | p24 / ELISA / antigen | - | NL4-3 | - | 10 µg/mL | TZM-bl | 69%
CN1C(C(=O)Nc2ccccn2)=C(O)c2ccccc2S1(=O)=O | p24 | - | MN | - | 50 µM | Jurkat cells | 0%
COC(=O)CCCCCNC(=O)[C@]12CCC(C)(C)C[C@H]1C1=CC[C@@H]3[C@@]4(C)C[C@@H](O)[C@H](O)C(C)(C)[C@@H]4CC[C@@]3(C)[C@]1(C)CC2 | p24 / ELISA | - | pNL4-3 | - | 25 µM | MT-2 | 63.2%
COc1ccc(OCC2OC2COC(=O)c2ccc(O)c(OC)c2)cc1 | GFP / fluorescence | - | - | - | 125 µM | CEM-GFP | 25%
CC1(C)[C@@H](O[C@H]2O[C@H](C(=O)O)[C@@H](O)[C@H](O)[C@H]2O[C@@H]2O[C@H](C(=O)O)[C@@H](O)[C@H](O)[C@H]2O)CC[C@]2(C)[C@H]3C=CC4=C5C[C@@](C)(C(=O)O)CC[C@]5(C)CC[C@@]4(C)[C@]3(C)CC[C@@H]12 | cytopathic effect / MTT | - | IIIB | - | 160 µM | MT-4 | 92.8%
N[C@H]1CONC1=O | antigen | - | N1T | - | 5 µg/mL | CEM | 88%
CCn1c(C)c(C(=O)N(C)C)c(C(=O)N(C)C)c1Cc1ccccc1 | p24 / ELISA | - | IIIB | - | 10 µM | PBL | 5%
Nc1ccn([C@H]2C=C[C@@H](CO)O2)c(=O)n1 | cytopathic effect | - | IIIB | - | 0.1 µM | ATH8 | 40%
COC(=O)CCCCCCCCCCNC(=O)[C@]12CCC(C)(C)C[C@H]1C1=CC[C@@H]3[C@@]4(C)C[C@@H](O)[C@H](O)C(C)(C)[C@@H]4CC[C@@]3(C)[C@]1(C)CC2 | p24 / ELISA | - | pNL4-3 | - | 25 µM | MT-2 | 64.4%
CCCCCCCCCCCCCCCC(=O)NC1C(COP(=O)(O)OC2C(O)C(COP(=O)(O)OC3CC(CO)OC3n3cnc4c(N)ncnc43)OC2n2cnc3c(N)ncnc32)OC(n2cnc3c(N)ncnc32)C1O | p24 | - | - | - | 300 µM | - | 0%
CC(=O)O[C@H]1C[C@@]2(C)[C@@H](C[C@@H](O)C3[C@]2(C)CC[C@H]2[C@H](C)[C@H](O)CC[C@]32C)/C1=C(/CCC=C(C)C)C(=O)O | p24 | - | IIIB | - | 25 µg/mL | Macrophage + Monocytes/macrophages | 99%
C=C1CC[C@@H](OC(=O)CCC(=O)OCC2CC(OP(=O)(O)OCC3CC(OP(=O)(O)OCC4CC(O)C(n5cnc6c(N)ncnc65)O4)C(n4cnc5c(N)ncnc54)O3)C(n3cnc4c(N)ncnc43)O2)C/C1=C/C=C1\CCC[C@]2(C)[C@@H]([C@@H](C)/C=C/[C@H](C)C(C)C)CC[C@@H]12 | syncytia | - | IIIB | - | 300 µM | SupT1 + Sup-T1 | 97.5%
C=C1C[C@@H](CO)O[C@H]1n1cc(C)c(=O)[nH]c1=O | - | - | - | - | 100 µM | H9 | 0%
C=C(C=O)[C@@H]1CC[C@@]2(C)C1C1CCC3[C@@]4(C)CC[C@H](O)C(C)(C)C4CC[C@@]3(C)[C@]1(C)C[C@@H]2O | - | - | - | - | 0.3 µM | CEM.NKR-CCR5 | 66%
CCn1c(C)c(C(=O)O)c(C(=O)O)c1Cc1ccccc1 | p24 / ELISA | - | IIIB | - | 10 µM | PBL | 5%
C[C@H]1[C@H](O)[C@@H](C)/C=C/C=C/C=C/C=C/C=C/C=C/C=C/[C@H](O[C@@H]2O[C@H](C)[C@@H](O)[C@H](N)[C@@H]2O)C[C@@H]2O[C@](O)(C[C@@H](O)C[C@@H](O)CC[C@H](O)[C@@H](O)C[C@@H](O)CC(=O)O[C@H]1C)C[C@H](O)[C@H]2C(=O)O | p24 / RT activity | - | 92UG029 CLADE A X4 (SI) | - | 3.1 µM | PBMC | 90%
NCCS | cytopathic effect / MTT | - | BaL | - | 100 µM | Macrophage | 100%
C/C(=C(/CCO)SS/C(CCO)=C(\C)N(C=O)Cc1cnc(C)nc1N)N(C=O)Cc1cnc(C)nc1N | - | - | IIIB | - | 250 µM | MOLT-4/IIIB + MOLT-4 | 99%
C[C@@H]1C[C@H](CC(=O)O)OC[C@@H]1N(C)C | - | - | - | pseudotyped | 10 µM | 293T | 0.7%
COc1ccc(C2=CC(c3cnc(C(C)C)cn3)SC(N)=N2)cc1 | p24 / ELISA / antigen | - | NL4-3 | - | 10 µg/mL | TZM-bl | 29%
C[C@H](NC(=O)CCCNC(=O)[C@]12CCC(C)(C)C[C@H]1C1=CC[C@@H]3[C@@]4(C)C[C@@H](O)[C@H](O)C(C)(C)[C@@H]4CC[C@@]3(C)[C@]1(C)CC2)C(=O)O | p24 / ELISA | - | pNL4-3 | - | 10 µM | MT-2 | 16.3%
CC(C)=CCO[C@H]1C(=O)Nc2ccc(Cl)cc2[C@@]1(C#CC1CC1)C(F)(F)F | - | - | RF | - | 1 µM | MT-2 | 90%
CCCCCCCCCCCCCCCCOCC(COC(=O)CCC(=O)OCC1CC(OP(=O)(O)OCC2CC(OP(=O)(O)OCC3CC(O)C(n4cnc5c(N)ncnc54)O3)C(n3cnc4c(N)ncnc43)O2)C(n2cnc3c(N)ncnc32)O1)OCCCCCCCCCCCCCCCC | syncytia | - | IIIB | - | 300 µM | SupT1 + Sup-T1 | 79.2%
CCOC(=O)c1c(C(=O)c2ccccc2F)c(C)n(C)c1C | p24 / ELISA | - | IIIB | - | 10 µM | PBL | 0%
C=C(C)[C@@H]1CC[C@]2(C(=O)NCCCCCCCC(=O)N[C@@H](CC(C)C)[C@@H](O)CC(=O)O)CC[C@]3(C)[C@H](CC[C@@H]4[C@@]5(C)CC[C@H](O)C(C)(C)[C@@H]5CC[C@]43C)[C@@H]12 | syncytia | GP41-K90R | LAI | - | 10 µM | HeLa P4 + HeLa | >99%
CCCCCCCCCCCCCCCCOCC(COC(=O)CCC(=O)OC1CC(COP(=O)(O)OC2CC(COP(=O)(O)OC3CC(CO)OC3n3cnc4c(N)ncnc43)OC2n2cnc3c(N)ncnc32)OC1n1cnc2c(N)ncnc21)OCCCCCCCCCCCCCCCC | syncytia | - | IIIB | - | 300 µM | SupT1 + Sup-T1 | 93.3%

For reference, 5 entries again:

smiles | read by | mutations | strain or isolate | setting | tested at | cells | value
CC1(C)[C@@H](O[C@H]2O[C@H](C(=O)O)[C@@H](O)[C@H](O)[C@H]2O[C@@H]2O[C@H](C(=O)O)[C@@H](O)[C@H](O)[C@H]2O)CC[C@]2(C)[C@H]3C=CC4=C5C[C@@](C)(C(=O)O)CC[C@]5(C)CC[C@@]4(C)[C@]3(C)CC[C@@H]12 | cytopathic effect / MTT | - | IIIB | - | 160 µM | MT-4 | 92.8%
Nc1ccn([C@@H]2O[C@H](CO)C=C2F)c(=O)n1 | cytopathic effect / MTT | - | xxBRU | - | 8 µM | - | 90%
Cc1cn([C@@H]2C[C@H](CO)N(C#N)C2)c(=O)[nH]c1=O | - | - | - | - | 100 µM | - | 0%
CCCCCCCCCCCCCCCCOCC(COC(=O)CCC(=O)OC1CC(COP(=O)(O)OC2CC(COP(=O)(O)OC3CC(CO)OC3n3cnc4c(N)ncnc43)OC2n2cnc3c(N)ncnc32)OC1n1cnc2c(N)ncnc21)OCCCCCCCCCCCCCCCC | syncytia | - | IIIB | - | 300 µM | SupT1 + Sup-T1 | 93.3%
COC(=O)CCCCCNC(=O)[C@]12CCC(C)(C)C[C@H]1C1=CC[C@@H]3[C@@]4(C)C[C@@H](O)[C@H](O)C(C)(C)[C@@H]4CC[C@@]3(C)[C@]1(C)CC2 | p24 / ELISA | - | pNL4-3 | - | 25 µM | MT-2 | 63.2%